Molecules are shown by their SMILES.

Chains of the proteins cited; added tags and fusions are not shown. Residues count along the entry.
UniProt O15393, 106-492 limits assumed: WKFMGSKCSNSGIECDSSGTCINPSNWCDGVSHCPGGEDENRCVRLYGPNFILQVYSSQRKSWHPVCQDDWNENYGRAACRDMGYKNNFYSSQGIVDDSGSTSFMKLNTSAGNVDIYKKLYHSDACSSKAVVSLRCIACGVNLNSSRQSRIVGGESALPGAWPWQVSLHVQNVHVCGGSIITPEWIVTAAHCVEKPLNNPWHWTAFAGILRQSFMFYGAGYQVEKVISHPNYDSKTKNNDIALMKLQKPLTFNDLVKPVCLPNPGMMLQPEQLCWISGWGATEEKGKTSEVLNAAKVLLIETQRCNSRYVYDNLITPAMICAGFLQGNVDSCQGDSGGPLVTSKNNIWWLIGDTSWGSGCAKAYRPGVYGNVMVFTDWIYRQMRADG

The text below walks through data of publication doi:10.1101/2022.02.04.479134, “A Suite of TMPRSS2 Assays for Screening Drug Repurposing Candidates as Potential Treatments of COVID-19” (bioRxiv, 2022).

Assay [1] is described as follows: Fluorescence counterassay (AMC quenching). The note with it: 1 μM AMC; 0% = 1 μM AMC, −100% = 0.1 μM AMC; <0% = quenching.
Assay [2] addresses Recombinant Human TMPRSS2 (Homo sapiens, UniProt O15393). The settings on record: read-out: Biochemical (fluorogenic) AC50; 10 μM Boc-QAR-AMC, 0.175 μM TMPRSS2, 1 h RT, 11-point dose-response in triplicate.

Broadly, the AC50 is the concentration giving half of the maximal activity seen. As to `COc1ccc(CC(=O)NC(NC(=NC#N)Nc2cccc3ncccc23)C(C)(C)C)cc1OC` (centres unmarked), in assay [1], the “Biochemical (fluorogenic counterassay) Max Response” value is recorded as 31.2%. Moreover, the AC50 in assay [2] came to 20.3 µM.
